Laboratory results reported in BindingDB's records for 17629261.

Protein sequences, listed by entry. Tags and fused reporters are not part of them. Residues count along the entry.
UniProt O69002, 1-198: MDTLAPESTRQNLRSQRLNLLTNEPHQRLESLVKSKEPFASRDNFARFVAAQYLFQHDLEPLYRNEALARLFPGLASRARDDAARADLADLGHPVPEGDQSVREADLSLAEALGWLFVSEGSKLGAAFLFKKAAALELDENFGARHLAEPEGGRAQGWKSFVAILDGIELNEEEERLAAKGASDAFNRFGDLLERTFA

Biological target: Iron-starvation protein PigA (Pseudomonas aeruginosa, UniProt O69002)
Assay: Binding affinity to Pseudomonas aeruginosa heme oxygenase

Compound `NCc1ccc([N+](=O)[O-])cc1[N+](=O)[O-]` has a Kd of 187 µM.
